Compound potency records, mixed from different reports. Data source: NIAID ChemDB in PubChem.

Shared fields: tests in culture; agent: Candida albicans; read-out: MIC

Lines come from different laboratories, so protocols vary.

compound | strain or isolate | value
Cc1c(N2CCCC(N)C2)c(F)cn2c(=O)c(C(=O)O)cc(C3CC3)c12 | CCH442 | >100 µg/mL
O=C(/C=C/c1ccc(Cl)cc1Cl)c1ccccc1 | ATCC 10231 | >50 µg/mL
CNCC1CCCN(c2c(F)cn3c(=O)c(C(=O)O)cc(C4CC4)c3c2C)C1.Cl | CCH442 | >100 µg/mL
Cc1c(N2CC[C@H](NC(=O)[C@H](C)NC(=O)[C@H](C)N)C2)c(F)cn2c(=O)c(C(=O)O)cc(C3CC3)c12.Cl | CCH442 | >100 µg/mL
CC1=C(N2CCC3(CC3N)C2)C(F)=CN2C(=O)C(C(=O)O)=CC(C3CC3)C12 | CCH442 | >100 µg/mL
Cc1c(N2CCC(CN)CC2)c(F)cn2c(=O)c(C(=O)O)cc(C3CC3)c12.Cl | CCH442 | >100 µg/mL
Cc1c(N2CCC(C(C)(C)N)C2)c(F)cn2c(=O)c(C(=O)O)cc(C3CC3)c12 | CCH442 | >100 µg/mL
CC(C)(O)C1Cc2cc3ccc(=O)oc3cc2O1 | ATCC 14053 | 500 µg/mL
COCOCC1CCCN(c2c(F)cn3c(=O)c(C(=O)O)cc(C4CC4)c3c2C)C1.Cl | CCH442 | >100 µg/mL
CC[C@H]1OC(=O)C=C2C1=CC1OC(=O)[C@@]3(C)CCC[C@@]2(C)[C@@H]13 | ATCC 90028 | 8 µg/mL
C=C(C)c1cc2c(ccc3ccc(=O)oc32)o1 | ATCC 14053 | 500 µg/mL
Cc1cnccc1CCCc1ccccc1 | 1208E | 16 µg/mL
Cc1c(N2CCCC(CN)C2)c(F)cn2c(=O)c(C(=O)O)cc(C3CC3)c12.Cl | CCH442 | >100 µg/mL
COc1cc(C(=O)CC(c2cc(OC)c(OC)c(OC)c2)C(C#N)C#N)cc(OC)c1OC | ATCC 10231 | >50 µg/mL
CC(=O)N1CCN(c2ccc(OC[C@H]3CO[C@](Cn4ccnc4)(c4ccc(Cl)cc4Cl)O3)cc2)CC1 | Isogenic isolate 11 (25X) | ≤0.008 µg/mL
CCc1c(N2CCC(N)C2)c(F)cn2c(=O)c(C(=O)O)cc(C3CC3)c12 | CCH442 | 50 µg/mL
CC(Cc1ccc(C(C)(C)C)cc1)CN1CC(C)OC(C)C1 | YAG237 (genotype CNB1-1/CNB1) | 3.12 µg/mL
c1ccc(CC2CCCc3cnccc32)cc1 | 1208E | 31 µg/mL
CC[C@H](NC)C1CCN(c2c(F)cn3c(=O)c(C(=O)O)cc(C4CC4)c3c2C)C1 | CCH442 | 100 µg/mL
CN1CCC2=C(CCCC2CCc2ccc(Cl)cc2)C1 | 1208E | 4 µg/mL
COc1c(N2CCC(N)C2)c(F)cn2c(=O)c(C(=O)O)cc(C3CC3)c12 | CCH442 | >100 µg/mL
Cc1ccc(/C=C/C(=O)c2ccccc2)cc1 | ATCC 10231 | >50 µg/mL
CN1CCC2=C(CCCC2CCc2c(Cl)cccc2Cl)C1 | 1208E | 125 µg/mL
C[C@@]12CCC[C@]3(C)C4=CC(=O)OC[C@]45O[C@@H]5C(OC1=O)[C@@H]23 | ATCC 90029 | 32 µg/mL
CN1CCC2=C(CCCC2CCc2cccc(Cl)c2)C1 | 2402E | 16 µg/mL
C[C@@H]1[C@H](O)[C@@H](C)/C=C/C=C/CC/C=C/C=C/C=C/C=C/C(O[C@H]2O[C@H](C)[C@@H](O)[C@H](N)[C@@H]2O)CC2O[C@](O)(CC(O)C(O)CCC(O)CC(O)CC(O)CC(=O)O[C@H]1C)CC(O)C2C(=O)O | MTCC 183 | 150 µg/mL
CN1CC[C@H]2[C@@H](CC[C@@H]3c4cc(Br)ccc4CC[C@H]23)C1 | C316 | >125 µg/mL
O=c1ccc2cc(O)c(O)cc2o1 | ATCC 14053 | 500 µg/mL
COc1cccc(C(=O)/C=C/c2cc3ccccc3cc2OC)c1 | ATCC 10231 | >50 µg/mL
CN1CCC2=C(CCCC2CCc2ccc(Cl)cc2Cl)C1 | 2005E | 8 µg/mL
CNCC1CN(c2c(F)cn3c(=O)c(C(=O)O)cc(C4CC4)c3c2C)CCO1.Cl | CCH442 | >100 µg/mL
COc1cc2cc(/C=C/C(=O)c3ccccc3)c(Cl)nc2cc1OC | ATCC 10231 | >50 µg/mL
CC1=C(N2CCO[C@H](CN)C2)C(F)=CN2C(=O)C(C(=O)O)=CC(C3CC3)C12 | CCH442 | >100 µg/mL
COc1cc2ccc(=O)oc2cc1OC | ATCC 14053 | 500 µg/mL
COc1ccc(CCC2CCCC3=C2CCN(C)C3)cc1OC | C316 | >125 µg/mL
C[C@H](CCC(=O)NCCNCCNC(=O)CC[C@@H](C)[C@H]1CCC2C3C(C[C@H](C)[C@@]21O)[C@@]1(C)CC[C@@H](O)CC1C[C@H]3O)[C@H]1CCC2C3C(C[C@H](C)[C@@]21O)[C@@]1(C)CC[C@@H](O)CC1C[C@H]3O | Isolate 1 | 0.01 µM
Cc1c(F)c(N2CCC(N)C2)cc2c(C3CC3)cc(C(=O)O)c(=O)n12 | CCH442 | >100 µg/mL

For reference, 2 entries again:

compound | strain or isolate | value
C=C(C)c1cc2c(ccc3ccc(=O)oc32)o1 | ATCC 14053 | 500 µg/mL
CNCC1CN(c2c(F)cn3c(=O)c(C(=O)O)cc(C4CC4)c3c2C)CCO1.Cl | CCH442 | >100 µg/mL